Pooled drug test results. Numbers come from NIAID ChemDB, via PubChem.

Common to all: cytotoxicity tests; cells: MT-4; read by: MTT; read-out: CC50

CCn: concentration that lowers growth or viability of the cells by n%. Rows are shuffled and stem from different studies.

structure | result
COc1ccc2nc3cc(Cl)ccc3c(NCCCCCO)c2c1 | 2 µM
Nc1ncnc2c1ncn2CCOCP(=O)(O)O | >100 µM
COc1ccc2nc3cc(Cl)ccc3c(N[C@H]3CCCN4CCCC[C@H]34)c2c1 | 6.4 µM
CC(C)=NOC(=O)OC[C@H]1O[C@@H](n2cc(C)c(=O)[nH]c2=O)C[C@@H]1N=[N+]=[N-] | 155 µM
Cc1c(Cc2c(Cl)cccc2Cl)nc(Sc2ccc(F)cc2F)[nH]c1=O | >60.5 µM
CCN(CC)CC(O)CNc1c2ccc(Cl)cc2nc2ccc(OC)cc12 | 1.7 µM
O=C1Nc2ccc(Cl)cc2S(=O)(=O)c2cn(CC=Cc3ccccc3)cc21 | >200 µM
CCN1CC(=O)Nc2c([N+](=O)[O-])cc(Cl)cc2S1(=O)=O | >200 µM
O=C(CSc1nncnc1-c1ccccc1Cl)c1ccc(Cl)c(Cl)c1 | 33 µM
CC(C)Nc1cccnc1N1CCN(C(=O)c2cc3cc(NS(C)(=O)=O)ccc3[nH]2)CC1 | >36 µM
CC(C)c1c(CO)cn(Cc2ccncc2)c1Sc1cccc(Cl)c1 | 65 µM
c1ccc(Cc2nnc3n2-c2ccccc2-n2c(Cc4ccccc4)nnc2C3)cc1 | 58 µM
C=COC(=O)OC[C@H]1O[C@@H](n2cc(C)c(=O)[nH]c2=O)C[C@@H]1N=[N+]=[N-] | 370.9 µM
O=C(CSc1nncnc1-c1cccc2ccccc12)Nc1ccccc1Br | 87 µM
CCN1C(=S)c2cn(C)cc2S(=O)(=O)c2cc(Cl)ccc21 | >200 µM
CCOP(=O)(OCC)C(F)(F)C[C@@]1(O)CO[C@@H](n2ccc(=O)[nH]c2=O)C1 | >100 µM
CCOC(=O)C(C)N(CC)S(=O)(=O)c1cc(Cl)ccc1[N+](=O)[O-] | 105 µM
CCOP(=O)(OCC)C(F)(F)C[C@@]1(O)CO[C@@H](n2cnc3c(Cl)nc(N)nc32)C1 | >100 µM
O=c1[nH]c(=O)n([C@H]2C=C[C@@H](CO)O2)cc1C#CCCO | 70 µM
COC(=O)c1ccc(NC(=O)CSc2nncnc2-c2ccccc2Cl)c(Br)c1 | 59 µM
Cc1ccccc1Cn1cc2c(c1)S(=O)(=O)c1cc(Cl)ccc1NC2=O | >200 µM
O=C1C(=Cc2ccc(Cl)c(Cl)c2)CCCC1=Cc1ccc(Cl)c(Cl)c1 | 120 µM
Cc1cc(C#N)cc(C)c1Oc1ccc([N+](=O)[O-])c(NC2CCN(Cc3ccc(S(C)(=O)=O)cc3)CC2)n1 | >146 µM
CCOC(=O)c1cn(Cc2ccc([N+](=O)[O-])cc2)c(Sc2cc(Cl)cc(Cl)c2)c1C(C)C | >200 µM
CC1C(=O)Nc2c([N+](=O)[O-])cc(Cl)cc2S(=O)(=O)N1CC1OC1(C)C | >200 µM
O=c1[nH]c(=O)n([C@H]2C=C[C@@H](CO)O2)cc1C#CCCOC1CCCCO1 | 71 µM
Cc1ccnc2c1NC(=O)c1cccnc1N2C1CC1 | >15 µM
CC(C)=CCn1cc2c(c1)S(=O)(=O)c1cc(Cl)ccc1NC2=S | 30 µM
CC1c2nnc(Cc3ccccc3)n2-c2ccccc2-n2c(Cc3ccccc3)nnc21 | >200 µM
CCOC(=O)c1cn(C)cc1S(=O)(=O)c1cc(Cl)ccc1N | >200 µM
Cc1cn([C@@H]2C[C@@H](N=[N+]=[N-])[C@H](COC(=O)NCCCCNC(=O)OC[C@H]3O[C@@H](n4cc(C)c(=O)[nH]c4=O)C[C@@H]3N=[N+]=[N-])O2)c(=O)[nH]c1=O | 200 µM
O=C1/C(=C/c2cc(O)c(O)c(O)c2)COC/C1=C\c1cc(O)c(O)c(O)c1 | 115 µM
CCCCn1cc(C(=O)O)c(=O)c2cc(I)c(Oc3ccnc(Nc4ccc(C#N)cc4)n3)cc21 | 3.23 µM
Cc1cn([C@@H]2C=C[C@H](COC(=O)OC[C@@H]3C=C[C@H](n4cc(C)c(=O)[nH]c4=O)O3)O2)c(=O)[nH]c1=O | >52.7 µM
CN1C/C(=C\c2ccc(O)c([N+](=O)[O-])c2)C(=O)/C(=C/c2ccc(O)c([N+](=O)[O-])c2)C1 | 25 µM
CCC(CO)Nc1c2ccc(Cl)cc2nc2ccc(OC)cc12 | 9.6 µM
CC(C)(C)n1cc(C(=O)O)c(=O)c2cc(I)c(Oc3ccnc(Nc4ccc(C#N)cc4)n3)cc21 | 13.4 µM
COc1ccc2nc3cc(Cl)ccc3c(N3CCN(CCO)CC3)c2c1 | 9 µM
O=S1(=O)c2cc(Cl)ccc2NC(=S)c2c[nH]cc21 | >200 µM
CCOP(=O)(OCC)C(F)(F)C[C@@]1(O)CO[C@@H](n2cnc3c(N)nc(F)nc32)C1 | >100 µM
Nc1ccn([C@H]2CC[C@@H](CO)O2)c(=O)n1 | >95 µM
CCC(C)n1cc(C(=O)O)c(=O)c2cc(I)c(Oc3ccnc(Nc4ccc(C#N)cc4)n3)cc21 | 4.99 µM
Cc1ccccc1Sc1c(C(C)C)c(COC(N)=O)cn1Cc1ccncc1 | >200 µM
Cc1cn([C@H]2C[C@H](N=[N+]=[N-])[C@@H](CO)O2)c(=O)[nH]c1=O | >20 µM
CCOC(=O)c1cn(Cc2ccncc2)c(Sc2cccc(F)c2)c1C(C)C | 40 µM
O=C(CSc1nncnc1-c1ccccc1Cl)Nc1ccccc1[N+](=O)[O-] | 63 µM
COc1ccc(Sc2nc(Cc3c(Cl)cccc3Cl)c(C)c(=O)[nH]2)cc1 | >61.4 µM
Cc1cc(C)c(Nc2ccc([N+](=O)[O-])c(NC3CCN(Cc4ccncc4)CC3)n2)c(C)c1 | 31 µM
CCOC(=O)c1cn(Cc2c(F)cccc2F)c(Sc2cc(Cl)cc(Cl)c2)c1C(C)C | >200 µM
O=C(CSc1nncnc1-c1ccccc1Cl)Nc1ccccc1 | 127 µM
COc1ccc2nc3cc(Cl)ccc3c(NCC[C@@H]3CCCN4CCCC[C@H]34)c2c1 | 0.7 µM
CCCn1cc(C(=O)O)c(=O)c2cc(I)c(Oc3ccnc(Nc4ccc(C#N)cc4)n3)cc21 | 7.37 µM
Cc1c(Cc2c(Cl)cccc2Cl)nc(Sc2ccc(C#N)cc2)[nH]c1=O | 27.6 µM
CC(C)Nc1cccnc1N1CCN(C(=O)c2cc3cc(NS(C)(=O)=O)ccc3[nH]2)CC1 | 127 µM
CC(C)=CCN1Cc2cc(Cl)cc3[nH]c(=S)n(c23)C[C@@H]1C | 30 µM
O=C(CSc1nncnc1-c1cccc2ccccc12)Nc1ccccc1F | 65 µM
Cc1ccnc2c1NC(=O)c1cccnc1N2C1CC1 | >15.02 µM
COc1ccc(Sc2nc(Cc3c(F)cccc3F)c(C)c(=O)[nH]2)cc1 | 57.5 µM
CC(C)n1cc(C(=O)O)c(=O)c2cc(Br)c(Oc3ccnc(Nc4ccc(C#N)cc4)n3)cc21 | 23.56 µM
CC(C)c1c(CO)cn(Cc2ccc([N+](=O)[O-])cc2)c1Sc1cc(Cl)cc(Cl)c1 | 45 µM
CC1c2nnc(-c3ccncc3)n2-c2ccccc2-n2c(-c3ccncc3)nnc21 | >200 µM
O=c1[nH]c(=O)n([C@H]2C=C[C@@H](CO)O2)cc1C#CCOC1CCCCO1 | 68 µM
NS(=O)(=O)c1ccc(NC(=O)CSc2nncnc2-c2cccc3ccccc23)c(Br)c1 | 23 µM
Cc1ccnc2c1NC(=O)c1cccnc1N2C1CC1 | >200 µM
Cc1c(Cc2c(Cl)cccc2Cl)nc(Sc2ccccc2)[nH]c1=O | >66.3 µM
O=c1[nH]cc([C@H]2C[C@H](O)[C@H](CO)[NH2+]2)c(=O)[nH]1 | >20 µM
Cc1cn([C@@H]2C[C@@H](N=[N+]=[N-])[C@H](COC(=O)OC[C@H]3O[C@@H](n4cc(C)c(=O)[nH]c4=O)C[C@@H]3N=[N+]=[N-])O2)c(=O)[nH]c1=O | 119.2 µM
Cc1ccnc2c1NC(=O)c1cccnc1N2C1CC1 | 73.87 µM
CCOC(=O)c1cn(Cc2ccncc2)c(Sc2cc(F)cc(F)c2)c1C(C)C | 42 µM
CCOC(=O)CC1C/C(=C\c2ccc(O)c(O)c2)C(=O)/C(=C/c2ccc(O)c(O)c2)C1 | 5 µM
CC(C)Cn1cc(C(=O)O)c(=O)c2cc(Br)c(Oc3ccnc(Nc4ccc(C#N)cc4)n3)cc21 | 21.07 µM